PubChem BioAssay AID1224833 | University of Georgia – 2016

Purpose: 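Human genes whose knock-down alters rotavirus replication in monkey cells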 (primary screen)
System: monkey MA104 kidney cells
Reagent: siRNA pool against human genes, 50 nM
Timing: 48 h knock-down before infection; read 24 h after infection
Challenge: infection with rotavirus strain RV3 two days after transfection; infectious dose for this stage not given
Measurement: 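z-score of rotavirus antigen signal per well, from a fluorescent immunoassay, relative to non-targeting control wells on the same plate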
Direction: z-score vs non-targeting control: higher = more rotavirus replication than with non-targeting control
Rule for the call: In these data the active calls have z-score vs non-targeting control at about -1 or lower, or at about 1 or higher
Calls: active = z-score beyond 1 either way; inactive = z-score within 1 of zero
This is an unselected part of about 12,000 reagents. Of all reagents, about 5,600 (46%) were called active. 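Active calls cover z-scores past 1 in both directions, so they include lowered as well as raised rotavirus replication.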 No sequences are given here.

no.	Gene	z-score vs non-targeting control	Outcome
1	PEX16 (GeneID 9409)	-0.252	inactive
2	TNF (GeneID 7124)	-1.17	active
3	FMOD (GeneID 2331)	1.2	active
4	PLBD1 (GeneID 79887)	-1.01	active
5	BST2 (GeneID 684)	-0.716	inactive
6	OR5B3 (GeneID 441608)	0.702	inactive
7	LEAP2 (GeneID 116842)	0.513	inactive
8	PRR7 (GeneID 80758)	1.18	active
9	SUDS3 (GeneID 64426)	0.124	inactive
10	RBL1 (GeneID 5933)	-0.894	inactive
11	PRY (GeneID 9081)	-1.17	active
12	ZFYVE27 (GeneID 118813)	-1.07	active
13	OR5D13 (GeneID 390142)	0.0029	inactive
14	ZNF782 (GeneID 158431)	-2.12	active
15	FEZ1 (GeneID 9638)	0.218	inactive
16	ANKMY2 (GeneID 57037)	-0.0839	inactive
17	FAM76B (GeneID 143684)	-0.982	inactive
18	RAB9B (GeneID 51209)	0.708	inactive
19	EPB41L4A (GeneID 64097)	-0.244	inactive
20	CTNNAL1 (GeneID 8727)	0.594	inactive
21	CEBPB (GeneID 1051)	2.28	active
22	TMEM59L (GeneID 25789)	-1.01	active
23	BFSP2 (GeneID 8419)	-1.73	active
24	CPA4 (GeneID 51200)	-1.21	active
25	SLC2A11 (GeneID 66035)	-0.6	inactive
26	EI24 (GeneID 9538)	0.885	inactive
27	LURAP1L (GeneID 286343)	-0.622	inactive
28	SALL3 (GeneID 27164)	-0.309	inactive
29	TWIST2 (GeneID 117581)	1.36	active
30	LETMD1 (GeneID 25875)	-2.22	active
31	ARF3 (GeneID 377)	-1.61	active
32	SOX21 (GeneID 11166)	0.655	inactive
33	FTSJ1 (GeneID 24140)	-1.1	active
34	DONSON (GeneID 29980)	-2.49	active
35	GCH1 (GeneID 2643)	-0.691	inactive
36	CORO1C (GeneID 23603)	-1.57	active
37	CXCR4 (GeneID 7852)	-1.04	active
38	GMFG (GeneID 9535)	-0.0199	inactive
39	ZNF708 (GeneID 7562)	0.111	inactive
40	ACSL6 (GeneID 23305)	-1.15	active
41	KLHL6 (GeneID 89857)	1.11	active
42	CCDC88A (GeneID 55704)	-0.598	inactive
43	ENO1 (GeneID 2023)	1.17	active
44	GIPC2 (GeneID 54810)	0.193	inactive
45	ENTPD8 (GeneID 377841)	-2.28	active
46	NFKBIZ (GeneID 64332)	-0.344	inactive
47	PRRG3 (GeneID 79057)	0.393	inactive
48	ZNF483 (GeneID 158399)	-0.37	inactive
49	FRMD1 (GeneID 79981)	0.145	inactive
50	MOV10L1 (GeneID 54456)	-0.725	inactive
51	OR7C2 (GeneID 26658)	-0.593	inactive
52	AQR (GeneID 9716)	-1	active
53	FAM221B (GeneID 392307)	0.212	inactive
54	AP3S1 (GeneID 1176)	0.0372	inactive
55	ADAMTS13 (GeneID 11093)	0.723	inactive
56	IQCB1 (GeneID 9657)	-0.549	inactive
57	DNAAF1 (GeneID 123872)	1.82	active
58	PDCD4 (GeneID 27250)	-1.31	active
59	CDC50B (GeneID 161291)	0.999	inactive
60	TK1 (GeneID 7083)	0.542	inactive
61	VEGFB (GeneID 7423)	1.07	active
62	TBC1D9 (GeneID 23158)	-0.594	inactive
63	ACSM5 (GeneID 54988)	2.79	active
64	COA3 (GeneID 28958)	1.77	active
65	TP73 (GeneID 7161)	-1.54	active
66	BRI3BP (GeneID 140707)	-1.57	active
67	SF3B3 (GeneID 23450)	-0.211	inactive
68	NR1D2 (GeneID 9975)	1.43	active
69	STMN4 (GeneID 81551)	0.681	inactive
70	CA4 (GeneID 762)	-1.93	active
71	LCE3D (GeneID 84648)	-2.05	active
72	ZC3H11D (GeneID 160419)	-1.67	active
73	MDFIC (GeneID 29969)	0.385	inactive
74	VIRMA (GeneID 25962)	1.6	active
75	HTR3A (GeneID 3359)	0.748	inactive
76	ACTR3B (GeneID 57180)	-1.09	active
77	SMIM11 (GeneID 54065)	-0.0731	inactive
78	SMPX (GeneID 23676)	-0.415	inactive
79	BRK1 (GeneID 55845)	-1.54	active
80	HDHD5 (GeneID 27440)	-1.38	active
81	EARS2 (GeneID 124454)	1.4	active
82	WDR82 (GeneID 80335)	-0.788	inactive
83	OR8B8 (GeneID 26493)	-0.36	inactive
84	CATSPERG (GeneID 57828)	-1.01	active
85	ELP6 (GeneID 54859)	0.511	inactive
86	RBPMS (GeneID 11030)	-0.375	inactive
87	UBL7 (GeneID 84993)	-0.336	inactive
88	LARP7 (GeneID 51574)	-0.66	inactive
89	CWH43 (GeneID 80157)	1.01	active
90	PARP6 (GeneID 56965)	-1.21	active
91	INSM2 (GeneID 84684)	-1.63	active
92	OGN (GeneID 4969)	1.13	active
93	TTI1 (GeneID 9675)	0.174	inactive
94	BANF2 (GeneID 140836)	-1.85	active
95	SLC41A3 (GeneID 54946)	-2.65	active
96	RPL34 (GeneID 6164)	1.18	active
97	SLC15A4 (GeneID 121260)	-0.806	inactive
98	YPEL3 (GeneID 83719)	-0.523	inactive
99	SLCO4A1 (GeneID 28231)	-2.01	active
100	MRPL11 (GeneID 65003)	-1.56	active
101	NCOA7 (GeneID 135112)	1.01	active
102	HNRNPL (GeneID 3191)	-0.0553	inactive
103	CSKMT (GeneID 751071)	-2.46	active
104	SPAG16 (GeneID 79582)	-0.435	inactive
105	CALCR (GeneID 799)	-0.642	inactive
106	NRXN3 (GeneID 9369)	0.121	inactive
107	NECTIN4 (GeneID 81607)	-2.31	active
108	CTHRC1 (GeneID 115908)	-0.0436	inactive
109	MANEA (GeneID 79694)	-2.04	active
110	CCDC3 (GeneID 83643)	-1.08	active
111	NOTCH3 (GeneID 4854)	-1.13	active
112	DEFB105A (GeneID 245908)	0.247	inactive
113	CHD6 (GeneID 84181)	1.27	active
114	SPTB (GeneID 6710)	-0.465	inactive
115	SLC25A38 (GeneID 54977)	-0.604	inactive
116	PELO (GeneID 53918)	0.296	inactive
117	PWWP2B (GeneID 170394)	-0.95	inactive
118	SEM1 (GeneID 7979)	-2.84	active
119	KIF15 (GeneID 56992)	-0.587	inactive
120	TAGAP (GeneID 117289)	-1.34	active
121	OR4C11 (GeneID 219429)	-0.203	inactive
122	BCLAF1 (GeneID 9774)	-1.37	active
123	MATN4 (GeneID 8785)	0.641	inactive
124	PRND (GeneID 23627)	-2.17	active
125	CCDC93 (GeneID 54520)	1.18	active
126	FCGR3A (GeneID 2214)	-3.14	active
127	ERVFRD-1 (GeneID 405754)	-2.28	active
128	BARX2 (GeneID 8538)	0.604	inactive
129	METTL21A (GeneID 151194)	-0.801	inactive
130	TAFA4 (GeneID 151647)	0.32	inactive
131	TNFRSF10C (GeneID 8794)	-2.3	active
132	IQSEC1 (GeneID 9922)	-0.775	inactive
133	ERC1 (GeneID 23085)	0.834	inactive
134	SETD3 (GeneID 84193)	-0.19	inactive
135	ITIH1 (GeneID 3697)	-0.53	inactive
136	SH3BGRL3 (GeneID 83442)	-1.4	active
137	TEX13A (GeneID 56157)	-0.233	inactive
138	LSS (GeneID 4047)	-1.52	active
139	LDLRAP1 (GeneID 26119)	-1.31	active
140	DCDC1 (GeneID 341019)	0.0881	inactive

8 successive reagents already listed, quoted:
no.	Gene	z-score vs non-targeting control	Outcome
22	TMEM59L (GeneID 25789)	-1.01	active
23	BFSP2 (GeneID 8419)	-1.73	active
24	CPA4 (GeneID 51200)	-1.21	active
25	SLC2A11 (GeneID 66035)	-0.6	inactive
26	EI24 (GeneID 9538)	0.885	inactive
27	LURAP1L (GeneID 286343)	-0.622	inactive
28	SALL3 (GeneID 27164)	-0.309	inactive
29	TWIST2 (GeneID 117581)	1.36	active
